Key:
[1] = system: P. falciparum NF54-pfs16-GFP late (IV-V) stage gametocytes; conditions: stage: late (IV-V) gametocyte; incubation 72 h
Method: (§1)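 MMV Malaria Box compounds active in the primary screen were retested in dose-response against P. falciparum NF54-pfs16-GFP early (I-III) or late (IV-V) gametocytes, 72 h, 37 C, viable gametocytes counted by confocal imaging; IC50 from an unconstrained 4-parameter fit. Compounds with no plateau have no IC50 and are left out.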

[2] = system: P. falciparum NF54-pfs16-GFP early (I-III) stage gametocytes; conditions: stage: early (I-III) gametocyte; incubation 72 h
Method: as §1

SMILES | IC50, viable gametocyte number [1] [µM] | IC50, viable gametocyte number [2] [µM]
CCC1(C)CC(CCNCc2ccccc2O)(c2ccc(C)cc2)CCO1 (stereo not drawn) | 0.676 | 1.39
c1ccc2c(NCCCCCCNc3c4c(nc5ccccc35)CCCC4)c3c(nc2c1)CCCC3 |  | 1.43
